Laboratory results published in publication PMC8703412 (Pharmaceuticals, 2021).

What was measured:
[1] = test system: Mycobacterium tuberculosis strain 331/88 (i.e., H37Rv); assay: MIC micromethod in Šula's medium, drug-susceptible Mtb.; assay type: cell-based; settings: SI = IC50 (HepG2)/MIC
[2] = test system: Mycobacterium kansasii 6509/96 (clinical isolate); assay: MIC micromethod in Šula's medium, M. kansasii; assay type: cell-based; settings: SI = IC50 (HepG2)/MIC

SMILES	SI for Mtb. 331/88 [1]	SI for M. kansasii 6509/96 [2]
C/C(=N\NC(=O)c1ccncc1)C(=O)Oc1ccccc1 [3b, Phenyl (E)-2-(2-isonicotinoylhydrazineylidene)propanoate]	≥4000	≥125
COc1ccc(OC(=O)/C(C)=N/NC(=O)c2ccncc2)cc1 [3d, 4-Methoxyphenyl (E)-2-(2-isonicotinoylhydrazineylidene)propanoate]	≥4000	≥125
C/C(=N\NC(=O)c1ccncc1)C(=O)Oc1ccc(Cl)cc1 [3g, 4-Chlorophenyl (E)-2-(2-isonicotinoylhydrazineylidene)propanoate]	≥8000	≥62.5
C/C(=N\NC(=O)c1ccncc1)C(=O)Oc1cccc2ccccc12 [3i, Naphthalen-1-yl (E)-2-(2-isonicotinoylhydrazineylidene)propanoate]	3997	3997
CC(=O)Nc1ccc(OC(=O)C(C)=NNC(=O)c2ccncc2)cc1 [3p, 4-Acetamidophenyl 2-(2-isonicotinoylhydrazineylidene)propanoate]	˃2000	≥62.5
C/C(=N\NC(=O)c1ccncc1)C(=O)OCCn1c([N+](=O)[O-])cnc1C [3q, 2-(2-Methyl-5-nitro-1H-imidazol-1-yl)ethyl (E)-2-(2 isonicotinoylhydrazineylidene)propanoate]	≥2000	≥250
C/C(=N\NC(=O)c1ccncc1)C(=O)Sc1ccccc1 [3s, S-Phenyl (E)-2-(2-isonicotinoylhydrazineylidene)propanethioate]	728	≥45.5
